The entries are a selection whose mix differs from that of the whole data set. Calls of active or inactive are those of the source. Rule as the data show it: active = activation mostly above about 9.7% (no sharp cut-off); inconclusive = no clear call, values can overlap the other calls; inactive = mostly below about 3.7%.

A short description of the test: induces V. cholerae light production without autoinducers, primary screen, BH1578 luxS cqsA deficient, single point (AID 588436). Particulars: V. cholerae BH1578 lux reporter, luminescence, 6 h, at 18.7 µM; hits give high values.
For the compound `COc1cc(C(=O)NCC2(N(C)C)CCCCC2)ccc1OC(F)F`, the activation was inactive: -0.546%.

Turning to `CCOC(=O)N1CCC(Nc2cccc(C)c2)CC1`, the activation was inactive: -0.316%.

Regarding `O=C(NCC1(N2CCCCC2)CCCCC1)c1ccc(F)cc1`, the activation was inactive: -0.399%.

In the case of `O=P1(N(CCCl)CCCl)SCCCS1`, the activation entry is “inactive”.

As for `CCCCOc1ccc(C(=O)NCC2(N3CCOCC3)CCCCC2)cc1`, the activation is inactive: -1.01%.

As to `COc1ccc(NC2CCN(CCc3ccccc3)CC2)c(OC)c1`, the activation was inactive: -4.17%.

As for `CCOC(=O)N1CCC(Nc2ccc(F)cc2)CC1`, the activation is inactive: -2.33%.

Consider `CCOc1ccc(C)cc1CN(CCCl)CCCl`, for which the activation result is “inactive”.

With `O=C1CCN(Cc2ccccc2)CC1`, the activation is inactive: -0.238%.

With `CCOC(=O)N1CCC(Nc2ccc(OC)cc2)CC1`, the activation is inactive: -0.324%.

For the compound `O=C(OC1CN2CCC1CC2)C1c2ccccc2Oc2ccccc21` (centres undefined), the activation was inactive: -0.893%.

As for `N#CC1(Nc2ccccc2)CCN(Cc2ccccc2)CC1`, the activation is inactive: -0.006%.

On to `O=C(NCC1(N2CCCCC2)CCCCC1)c1ccc(Cl)s1`, for which the activation entry was “inactive”.

On to `COc1ccc(Cl)cc1C(=O)NCC1(N2CCOCC2)CCCCC1`, for which the activation entry is “inactive”.

Take `O=C(NCC1(N2CCOCC2)CCCCC1)c1cc2ccccc2o1`: the activation was inactive: -3.45%.

Turning to `O=C(NCC1(N2CCCCC2)CCCCC1)c1ccc(Cl)nc1`, the activation is inactive: 0.917%.

As for `Cc1cc(C)cc(N(C(=O)c2ccccc2)C2CCN(C(=O)OC(C)(C)C)CC2)c1`, the activation was inactive: -7.69%.

`CSc1ccccc1C(=O)NCC1(N2CCCCC2)CCCCC1`: the activation result was “inactive”.

As to `Cc1cccc(NC2(C#N)CCN(Cc3ccccc3)CC2)c1`, the activation was inactive: -0.8%.

Consider `O=C(NCC1(N2CCCCC2)CCCCC1)c1ccc(=O)[nH]c1`, for which the activation was inactive: -0.358%.

Turning to `O=C(NCC1(N2CCCCC2)CCCCC1)c1cccs1`, the activation result was “inactive”.

Take `COc1ccc(C(=O)NCC2(N3CCCCC3)CCCCC2)cc1`: the activation is inactive: -0.488%.

Regarding `CC(C)(C)OC(=O)N1CCC(N(C(=O)c2ccccc2)c2ccc(F)cc2)CC1`, the activation was inactive: 0.806%.

With `COc1ccc(C(=O)NCC2(N3CCCCC3)CCCCC2)c(OC)c1OC`, the activation entry was “inactive”.

As to `Cc1ccc(C(=O)NCC2(N(C)C)CCCCC2)o1`, the activation is inactive: 0.459%.

`CCCOc1ccc(C(=O)NCC2(N(C)C)CCCCC2)cc1OC`: the activation entry was “inactive”.

Turning to `O=C(NCC1(N2CCCCC2)CCCCC1)c1cncc(Br)c1`, the activation is inactive: -3.73%.

As for `CN1CCC(Nc2cccc(F)c2)CC1`, the activation is inactive: 0.746%.

Turning to `COc1cc(OC)c(C(=O)NCC2(N(C)C)CCCCC2)cc1OC`, the activation entry is “inactive”.

`O=C(NCC1(N2CCOCC2)CCCCC1)c1cc(F)c(F)cc1Cl`: the activation entry was “inactive”.

In the case of `COc1ccc(CN(CCCl)CCCl)cc1Cl`, the activation was inactive: -0.53%.

Regarding `CN(C)c1cccc(C(=O)NCC2(N3CCCCC3)CCCCC2)c1`, the activation was inactive: -0.603%.

`CC(C)c1ccc(NC2CCN(C(=O)OC(C)(C)C)CC2)cc1`: the activation is inactive: -1.14%.

Take `CN1CCN(CCOC(=O)C(O)(c2ccccc2)c2ccccc2)CC1`: the activation result was “inactive”.

Turning to `CC(C)c1ccc(C(=O)NCC2(N3CCOCC3)CCCCC2)cc1`, the activation was inactive: -1.82%.

On to `COc1ccc(NC2CCN(C(=O)OC(C)(C)C)CC2)cc1`, for which the activation result was “inactive”.

On to `COc1cc(C(=O)NCC2(N3CCCCC3)CCCCC2)ccc1OC(F)F`, for which the activation was inactive: -0.002%.

Regarding `O=C(NCC1(N2CCOCC2)CCCCC1)c1cc(=O)[nH]c2ccccc12`, the activation entry was “inactive”.

For the compound `O=C(NCC1(N2CCCCC2)CCCCC1)c1cccc(C(F)(F)F)c1`, the activation is inactive: -0.284%.

For the compound `CSc1ccc(C(=O)NCC2(N3CCOCC3)CCCCC2)cc1`, the activation is inactive: -4.79%.

In the case of `CCN1CCC(Nc2ccc(Cl)cc2)CC1`, the activation entry was “inactive”.

`N#CC1(Nc2ccccc2)CCN(CCc2ccccc2)CC1`: the activation result is “inactive”.

For the compound `O=C(NCC1(N2CCCCC2)CCCCC1)c1ccc(OC(F)F)cc1`, the activation is inactive: -0.438%.

`c1ccc(CN2CCC(Nc3ccccc3)CC2)cc1`: the activation is inactive: -0.623%.

As to `Cc1cc(N(CCCl)CCCl)ccc1C=O`, the activation was inactive: 5.56%.

`CCCN1CCC(Nc2cc(OC)cc(OC)c2)CC1`: the activation entry is “inactive”.

Take `CN(C)C1(CNC(=O)c2cccc(C#N)c2)CCCCC1`: the activation is inactive: -7.69%.

Regarding `CC(C)(C)OC(=O)N1CCC(N(C(=O)c2ccccc2)c2ccc(Cl)cc2)CC1`, the activation is inactive: -0.101%.

On to `N#Cc1ccc(C(=O)NCC2(N3CCCCC3)CCCCC2)cc1`, for which the activation was inactive: -0.292%.

`O=C(OC1CN2CCC1CC2)C1c2ccccc2C=Cc2ccccc21` (centres undefined): the activation was inactive: -0.343%.

As to `N/C(=N\O)c1c(N)no[n+]1[O-]`, the activation was inactive: -0.286%.

Take `CCOC(=O)N1CCC(Nc2ccc(C)cc2)CC1`: the activation is inactive: 0.477%.

With `COc1ccc(C(=O)NCC2(N3CCOCC3)CCCCC2)cc1OC`, the activation is inactive: -0.207%.

Turning to `O=C(NCC1(N2CCOCC2)CCCCC1)c1cc(Br)ccc1Cl`, the activation result is “inactive”.

With `COc1cc(C(=O)NCC2(N3CCOCC3)CCCCC2)cc(OC)c1C`, the activation entry was “inactive”.

On to `CN1CCC(Nc2ccc(Cl)cc2)CC1`, for which the activation result was “inactive”.

Turning to `CCC(CO)(C(=O)OC1CN2CCC1CC2)c1ccccc1` (centres undefined), the activation entry is “inactive”.

For the compound `COc1cc(OC)cc(C(=O)NCC2(N3CCOCC3)CCCCC2)c1`, the activation was inactive: -0.412%.

On to `COc1cccc(C(=O)N(c2cc(C)cc(C)c2)C2CCN(C(=O)OC(C)(C)C)CC2)c1`, for which the activation is inactive: -10%.

For `CCCOc1ccc(C(=O)NCC2(N(C)C)CCCCC2)cc1`, the activation entry is “inactive”.

On to `CC(C)(C)OC(=O)N1CCC(Nc2ccccc2)CC1`, for which the activation result was “inactive”.

Take `O=C(O)C1(Nc2ccccc2)CCN(Cc2ccccc2)CC1`: the activation was inactive: -1.35%.

In the case of `CCOc1ncccc1C(=O)NCC1(N2CCOCC2)CCCCC1`, the activation is inactive: -0.198%.

In the case of `CN1CCC(Nc2ccc(F)c(Cl)c2)CC1`, the activation was inactive: -1.2%.

On to `O=C(NCC1(N2CCCCC2)CCCCC1)c1ccco1`, for which the activation is inactive: -0.295%.

With `Cn1c(=O)[nH]cc(N(CCCl)CCCl)c1=O`, the activation was inactive: 0.834%.

With `CN(C)c1ccc(C(=O)NCC2(N3CCCCC3)CCCCC2)cc1`, the activation was inactive: -0.335%.

On to `Cc1ccccc1NC1(C#N)CCN(Cc2ccccc2)CC1`, for which the activation is inactive: -1.28%.

As to `CCN1CCC(Nc2cccc(F)c2)CC1`, the activation was inactive: -0.213%.

Take `Cc1ccc(NC2(C#N)CCN(Cc3ccccc3)CC2)cc1`: the activation was inactive: 0.8%.

As to `Cc1ccc(C(=O)NCC2(N3CCCCC3)CCCCC2)o1`, the activation entry was “inactive”.

Regarding `Fc1ccccc1NC1CCN(Cc2ccccc2)CC1`, the activation result is “inactive”.

`COc1cc(OC)cc(C(=O)NCC2(N3CCCCC3)CCCCC2)c1`: the activation entry is “inactive”.

On to `CC(=O)N(c1ccccc1)C1CCNCC1`, for which the activation result is “inactive”.

The record behind these values is PubChem BioAssay AID588436 (Broad Institute, 2011).
